Measured values as given in patent US7541020B2, “Aminoalkyl glucosaminide phosphate compounds and their use as adjuvants and immunoeffectors” (priority 1997, dated 2009).

Legend:
[1] = tested on: tetanus toxoid; conditions: mouse, in vivo, sc; as to Anti-tetanus toxoid IgG1 T/C: test concentration or dose not given here; as to Anti-tetanus toxoid IgG2b Titer: test concentration or dose not given here
[2] = tested on: tetanus toxoid; conditions: mouse, in vivo; as to Anti-tetanus toxoid IgG1 T/C: test concentration or dose not given here; as to Anti-tetanus toxoid IgG2b Titer: test concentration or dose not given here

Substance	Anti-tetanus toxoid IgG1 T/C [1]	Anti-tetanus toxoid IgG1 Titer [1]	Anti-tetanus toxoid IgG2a T/C [1]	Anti-tetanus toxoid IgG2a Titer [1]	Anti-tetanus toxoid IgG2b T/C [1]	Anti-tetanus toxoid IgG2b Titer [1]	Anti-tetanus toxoid IgM T/C [1]	Anti-tetanus toxoid IgM Titer [1]	Anti-tetanus toxoid Total IgG T/C [1]	Anti-tetanus toxoid Total IgG Titer [1]	Anti-Tetanus Toxoid Titer^−1 Fecal Extract IgA [2]	Anti-Tetanus Toxoid Titer^−1 Fecal Extract IgG [2]	Anti-Tetanus Toxoid Titer^−1 Vaginal Wash IgA [2]
3-Hydroxy-(R)-2-[(R)-3-tetradecanoyloxytetradecanoylamino]propyl 2-Deoxy-4-O-phosphono-2-[(R)-3-tetradecanoyloxytetradecanoylamino]-3-O-[(R)-3-tetradecanoyloxytetradecanoyl]-β-D-glucopyranoside Triethylammonium Salt [B2]	2.16	464,000	4.28	21,700	1.57	45,200	4.50	7,200	3.84	24,800	–	–	–
3-Hydroxy-(S)-2-[(R)-3-decanoyloxytetradecanoylamino]propyl 2-Deoxy-4-O-phosphono-2-[(R)-3-decanoyloxytetradecanoylamino]-3-O-[(R)-3-decanoyloxytetradecanoyl]-β-D-glucopyranoside Triethylammonium Salt [B5]	–	–	–	–	–	–	–	–	–	–	3200 and 6400	50 and 100	3200
3-Hydroxy-(S)-2-[(R)-3-dodecanoyloxytetradecanoylamino]propyl 2-Deoxy-4-O-phosphono-2-[(R)-3-dodecanoyloxytetradecanoylamino]-3-O-[(R)-3-dodecanoyloxytetradecanoyl]-β-D-glucopyranoside Triethylammonium Salt [B3]	–	–	–	–	–	–	–	–	–	–	3200 and 6400	50 and 100	6400
3-Hydroxy-(S)-2-[(R)-3-tetradecanoyloxytetradecanoylamino]propyl 2-Deoxy-4-O-phosphono-2-[(R)-3-tetradecanoyloxytetradecanoylamino]-3-O-[(R)-3-tetradecanoyloxytetradecanoyl]-β-D-glucopyranoside Triethylammonium Salt [B1]	3.42	736,000	3.78	19,200	2.45	70,400	2.38	3,800	3.97	25,600	–	–	–
3-Hydroxy-(S)-2-[(R)-3-undecanoyloxytetradecanoylamino]propyl 2-Deoxy-4-O-phosphono-2-[(R)-3-undecanoyloxytetradecanoylamino]-3-O-[(R)-3-undecanoyloxytetradecanoyl]-β-D-glucopyranoside Triethylammonium Salt [B4]	–	–	–	–	–	–	–	–	–	–	–	25 and 50	–

Values joined by “and” are separate entries in the source; they are usually repeats but may differ in a detail not shown here. Equal values may be shown once.
